Measured values: US20170035877A1

Assays:
JRFL gp120 = JRFL gp120 (UniProt P20871)
JRFL SOSIP = JRFL SOSIP (UniProt P20871); assay: ITC; conditions: Fab

Substance	Kd (JRFL gp120)	Kd (JRFL SOSIP)
F105	0.00742 µM	–
VRC01 Fab	–	0.207 µM
